Experimental data: PubChem BioAssay AID624099 (ICCB-Longwood, 2012)
Here is a random part of about 21,000 deposited reagents. 497 of them (2.4%) count as active. 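Higher z means weaker E2 silencing; only reporter increases were scored, and knock-downs that hurt cell survival may mask genuine repressor factors.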

- Purpose: 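Host factors E2 relies on to silence an HPV18 LCR reporter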 (primary screen)
- Cells: human C33A cervical carcinoma cells (HPV-negative) stably expressing BPV1 E2 and an HPV18 LCR luciferase reporter
- Knock-down reagent: siRNA pool against human genes, 40 nM
- Duration: 72 h
- Read-out: 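HPV18 LCR reporter light per well, converted to plate-wise z-scores that exclude control wells, and averaged over triplicate plates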
- Reading the numbers: mean z-score and z-score: higher = stronger reporter signal, weaker E2 silencing
- Rule for the call: 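Hit if mean z-score reaches 2 and two or more of three replicate z-scores also reach 2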

After knock-down of LOC402563 (retired record) the results were mean z-score 1.1; z-score, replicate A = 1.2; z-score, replicate B = 1.57; z-score, replicate C = 0.54; inactive.
For EPHB6 (EPH receptor B6) the deposit lists mean z-score 0.91; z-score, replicate A = 1.06; z-score, replicate B = 1.11; z-score, replicate C = 0.57; inactive.
For SEC11C (SEC11 homolog C, signal peptidase complex subunit), the values are mean z-score -0.53; z-score, replicate A = -0.51; z-score, replicate B = -0.47; z-score, replicate C = -0.62; inactive.
Against KLHL17 (kelch like family member 17) the deposit lists mean z-score -0.07; z-score, replicate A = -0.24; z-score, replicate B = -0.09; z-score, replicate C = 0.13; inactive.
After knock-down of CEBPA-DT (CEBPA divergent transcript) the results were mean z-score -0.88; z-score, replicate A = -0.88; z-score, replicate B = -0.9; z-score, replicate C = -0.87; inactive.
Depletion of MAPK7 (mitogen-activated protein kinase 7) came out at: mean z-score 1.35; z-score, replicate A = 1.74; z-score, replicate B = 1.01; z-score, replicate C = 1.29; inactive.
OR10A4 (olfactory receptor family 10 subfamily A member 4) showed mean z-score 0.12; z-score, replicate A = 0.05; z-score, replicate B = 0.37; z-score, replicate C = -0.06; inactive.
With knock-down of MTSS2 (MTSS I-BAR domain containing 2) the results were mean z-score 0.85; z-score, replicate A = 1.24; z-score, replicate B = 0.5; z-score, replicate C = 0.81; inactive.
After knock-down of CBX2 (chromobox 2) the results were mean z-score -1.03; z-score, replicate A = -1.16; z-score, replicate B = -1.02; z-score, replicate C = -0.9; inactive.
For TPST2 (tyrosylprotein sulfotransferase 2), the entry reads mean z-score 1.13; z-score, replicate A = 1.32; z-score, replicate B = 0.98; z-score, replicate C = 1.08; inactive.
With knock-down of MT4 (metallothionein 4) the results were mean z-score -0.87; z-score, replicate A = -0.91; z-score, replicate B = -0.65; z-score, replicate C = -1.06; inactive.
With knock-down of SNAI3 (snail family transcriptional repressor 3) the results were mean z-score 0.14; z-score, replicate A = 0.18; z-score, replicate B = 0.07; z-score, replicate C = 0.17; inactive.
CAPN13 (calpain 13) scored mean z-score -0.92; z-score, replicate A = -1.05; z-score, replicate B = -0.62; z-score, replicate C = -1.09; inactive.
Against SAP30 (Sin3A associated protein 30), the entry reads mean z-score 0.02; z-score, replicate A = -0.3; z-score, replicate B = 0.08; z-score, replicate C = 0.28; inactive.
After knock-down of SOS1 (SOS Ras/Rac guanine nucleotide exchange factor 1), the screen gave mean z-score -0.06; z-score, replicate A = 0.37; z-score, replicate B = -0.21; z-score, replicate C = -0.33; inactive.
Knock-down of LOC389139 (retired record) gave: mean z-score 1.22; z-score, replicate A = 1.39; z-score, replicate B = 0.95; z-score, replicate C = 1.34; inactive.
For MATN3 (matrilin 3) the deposit lists mean z-score 0.02; z-score, replicate A = -0.17; z-score, replicate B = 0.13; z-score, replicate C = 0.09; inactive.
SAMHD1 scored mean z-score 2.02; z-score, replicate A = 2.14; z-score, replicate B = 1.86; z-score, replicate C = 2.07; active.
Depletion of LINC02991 (long independently transcribed non-coding RNA 2991) came out at: mean z-score 0.08; z-score, replicate A = 0.3; z-score, replicate B = -0.16; z-score, replicate C = 0.1; inactive.
For BCAS2 (BCAS2 pre-mRNA processing factor) the deposit lists mean z-score -0.2; z-score, replicate A = -0.39; z-score, replicate B = -0.07; z-score, replicate C = -0.14; inactive.
After knock-down of LOC401891 (retired record) the results were mean z-score -0.95; z-score, replicate A = -0.93; z-score, replicate B = -0.97; z-score, replicate C = -0.94; inactive.
